Experimental data: PubChem BioAssay AID1259414 (Drosophila RNAi Screening Center, 2018)

- Assay: 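Host factors increasing or decreasing Wolbachia levels in cultured fly cells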 (primary screen)
- Cells: Drosophila JW18 cells infected with Wolbachia
- Knock-down reagent: long dsRNA against Drosophila genes, 0.25 µg dsRNA per well of a 384-well plate
- Duration: 5 days
- Conditions: cells persistently infected with Wolbachia before knock-down; no added drug
- Measurement: 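Automated imaging of bacterial rRNA staining divided by host cell count, reported as plate-normalised robust z-score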
- Scale: Wolbachia per cell robust z: higher = more Wolbachia per host cell than the plate typical
- Hit rule: 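Hit when robust z is 1.5 or more, or -1.5 or less, in at least two of three replicates; excludes dsRNAs with several or no targets, genes not expressed in JW18 and well A1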
In all, the deposit lists about 24,000 reagents; shown is an unselected part of those that have a named target and a result. In the full data, about 1,210 (5%) are marked active. 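Inactive calls also include excluded dsRNAs with several or no targets, genes unexpressed in JW18, and well A1, regardless of score.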 A number with no mark means an inactive call. A plus sign joins genes that one reagent is predicted to hit. No sequences are given here.

| target gene | dsRNA | Wolbachia per cell robust z, rep 1 | Wolbachia per cell robust z, rep 2 | Wolbachia per cell robust z, rep 3 |
| --- | --- | --- | --- | --- |
| ERR (estrogen-related receptor) | DRSC10840 | 0.465 | 0.454 | -0.341 |
| Ifrd1 (Interferon-related developmental regulator 1) | DRSC00415 | -7.12 (active) | -2.62 | 0.325 |
| Ifrd1 (Interferon-related developmental regulator 1) | DRSC00566 | -3.64 | -0.808 | 0.292 |
| CG42673 | DRSC08989 | -0.513 | 0.995 | -0.518 |
| CG42673 | DRSC08991 | 4.17 | 4.54 | 2.48 |
| CG42673 | DRSC10177 | -2.57 | 0.566 | 0.401 |
| CG42673 | DRSC10264 | 0.597 | -0.143 | 0.47 |
| CG42673 | DRSC10353 | 0.346 | 0.283 | 0.142 |
| CG42673 | DRSC10354 | -0.854 | -0.879 | -0.809 |
| CG42673 | DRSC25788 | 0.0291 | -0.451 | -0.371 |
| CG3902 | DRSC10387 | 0.692 | -0.839 | 0.53 |
| CG3902 | DRSC24267 | 1.74 | -0.407 | -0.608 |
| CG32379 | DRSC10318 | 1.93 | 0.146 | -5.67 |
| BEAF-32 + asRNA:CR42254 | DRSC05503 | -0.287 | -1.24 | -1.9 |
| CG42724 | DRSC12567 | 3.2 | -3.21 | 0.563 |
| CG42724 | DRSC22275 | -0.395 | -0.317 | -0.256 |
| CG42724 | DRSC25154 | -0.228 | -0.298 | 0.772 |
| CG42724 | DRSC30081 | 0.428 | -0.227 | -0.0557 |
| Utx (Utx histone demethylase) | DRSC02872 | -6.29 | 0.79 | -0.0636 |
| CG32809 | DRSC18507 | -4.38 (active) | -3.45 | -2.55 |
| CG32809 | DRSC18592 | -0.25 | 0.411 | -1.65 |
| Tango6 (Transport and Golgi organization 6) | DRSC02671 | 0.214 | -1.64 | -1.48 |
| Tango6 (Transport and Golgi organization 6) | DRSC29389 | 0.904 | 0.124 | -0.699 |
| CG17816 | DRSC15277 | 1.62 | -1.95 | 1.45 |
| CG17816 | DRSC29783 | -6.55 | -0.517 | 0.491 |
| CG1416 | DRSC03706 | -1.19 | 1.32 | -3.67 |
| Orcokinin | DRSC04202 | 0.15 | -0.033 | 0.306 |
| Neos (Neosin) | DRSC11235 | 0.486 | -0.265 | -2 |
| CG14492 | DRSC06463 | -2.65 | 0.525 | -0.282 |
| Ufm1 (Ubiquitin-fold modifier 1) | DRSC38750 | 0.201 | -1.26 | -0.303 |
| Mat1 (Menage a trois 1) | DRSC07465 | 0.472 | -1.56 | 1.1 |
| Mat1 (Menage a trois 1) | DRSC25955 | 0.0744 | 0.582 | -0.029 |
| ppl (pumpless) | DRSC11899 | 0.383 | 0.341 | 0.123 |
| ppl (pumpless) | DRSC27839 | -0.286 | -1.49 | -0.815 |
| l(3)07882 (lethal (3) 07882) | DRSC15882 | -0.0457 | -0.679 | -0.255 |
| CG8916 | DRSC20120 | -1.06 | -2.32 | -0.523 |
| Marcal1 | DRSC02718 | -0.369 | -1.04 | 0.613 |
| CG3348 | DRSC15480 | 0.752 | 0.266 | 0.48 |
| CG5902 | DRSC15912 | -0.659 | -0.735 | -5.26 |
| CR31953 + gkt | DRSC00709 | -6.1 (active) | -5.1 | -0.78 |
| CG16727 | DRSC15139 | -1.29 | -2.68 | -5.7 |
| CG16727 | DRSC26820 | 0.383 | 0.0901 | -0.717 |
| lute | DRSC14812 | 0.356 | 1.1 | 1.04 |
| lute | DRSC15769 | -5.95 (active) | -2.36 | -4.36 |
| lute | DRSC25911 | -2.1 | 1.61 | 0.347 |
| lute | DRSC27206 | -5.99 | 0.245 | -1.01 |
| CG9300 | DRSC11064 | 0.794 | 0.0933 | 0.529 |
| CG31296 | DRSC13092 | 0.241 | 0.602 | -5.9 |
| sut1 (sugar transporter 1) | DRSC07700 | 0.0717 | 0.213 | 0.392 |
| CG31371 | DRSC15079 | -0.254 | 0.911 | -3.4 |
| Uck (Uridine-cytidine kinase) | DRSC16028 | 0.0957 | 0.941 | -0.607 |
| Uck (Uridine-cytidine kinase) | DRSC41621 | -0.28 | -1.95 | -1.08 |
| CG42704 | DRSC40507 | -0.323 | 0.0455 | -1.25 |
| Pp2A-29B (Protein phosphatase 2A at 29B) | DRSC03400 | 0.727 | -0.143 | -0.0489 |
| Pp2A-29B (Protein phosphatase 2A at 29B) | DRSC28394 | 0.308 | 0.138 | 0.227 |
| CG7386 | DRSC10832 | -0.287 | -0.126 | 0.489 |
| CG7386 | DRSC29368 | 0.729 | -6.15 | 0.629 |
| CG8026 | DRSC07055 | 0.359 | 0.225 | -0.128 |
| CG8026 | DRSC07056 | 0.901 | -0.231 | 0.675 |
| GstS1 (Glutathione S transferase S1) | DRSC07436 | 0.311 | -0.632 | 0.288 |
| GstS1 (Glutathione S transferase S1) | DRSC40756 | -0.946 | 0.703 | 0.287 |
| synr (sayonara) | DRSC02369 | -1.3 | -0.124 | -0.764 |
| PPP4R2r (Protein phosphatase 4 regulatory subunit 2-related protein) | DRSC18695 | 1.09 | 1.54 | 1.12 |
| PPP4R2r (Protein phosphatase 4 regulatory subunit 2-related protein) | DRSC21503 | -0.0242 | 0.758 | -1.03 |
| PPP4R2r (Protein phosphatase 4 regulatory subunit 2-related protein) | DRSC27825 | -0.598 | -0.0406 | 0.313 |
| SmF (Small ribonucleoprotein particle protein SmF) | DRSC07397 | 1.71 | 1.47 | 1.14 |
| SmF (Small ribonucleoprotein particle protein SmF) | DRSC25054 | 0.897 | 1.36 | 2.65 |
| dop (drop out) | DRSC10655 | -0.6 | -0.194 | -0.236 |
| dop (drop out) | DRSC29525 | -0.789 | -2.24 | 0.0199 |

Records above marked active, once more:
| target gene | dsRNA | Wolbachia per cell robust z, rep 1 | Wolbachia per cell robust z, rep 2 | Wolbachia per cell robust z, rep 3 |
| --- | --- | --- | --- | --- |
| Ifrd1 (Interferon-related developmental regulator 1) | DRSC00415 | -7.12 (active) | -2.62 | 0.325 |
| CG32809 | DRSC18507 | -4.38 (active) | -3.45 | -2.55 |
| CR31953 + gkt | DRSC00709 | -6.1 (active) | -5.1 | -0.78 |
| lute | DRSC15769 | -5.95 (active) | -2.36 | -4.36 |
